# PubChem BioAssay AID624099 | ICCB-Longwood, 2012
# Assay: 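Host factors E2 relies on to silence an HPV18 LCR reporter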 (primary screen)
# Cell system: human C33A cervical carcinoma cells (HPV-negative) stably expressing BPV1 E2 and an HPV18 LCR luciferase reporter
# Knock-down reagent: siRNA pool against human genes, 40 nM
# Time to read-out: 72 h
# Read-out: 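HPV18 LCR reporter light per well, converted to plate-wise z-scores that exclude control wells, and averaged over triplicate plates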
# Reading the numbers: mean z-score and z-score: higher = stronger reporter signal, weaker E2 silencing
# Hit rule: 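Mean z ≥ 2 together with z ≥ 2 in two or more of the three replicates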
# In all, the deposit lists about 21,000 reagents; shown is a part drawn at random. In the full data, 497 (2.4%) were called active. 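Higher z means weaker E2 silencing; only reporter increases were scored, and knock-downs that hurt cell survival may mask genuine repressor factors.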 Unmarked entries are inactive.
gene symbol,mean z-score,"z-score, replicate A","z-score, replicate B","z-score, replicate C"
MLIP (muscular LMNA interacting protein),-0.98,-1.33,-0.97,-0.63
NAT9 (N-acetyltransferase 9),0.84,0.88,0.79,0.84
SRP9 (signal recognition particle 9),-0.04,0.01,0.05,-0.19
LOC400708 (retired record),-0.17,0.12,-0.29,-0.35
CCDC170 (coiled-coil domain containing 170),0.67,0.76,0.54,0.7
"B3GALNT2 (beta-1,3-N-acetylgalactosaminyltransferase 2)",-0.91,-1.32,-0.67,-0.74
DDX11 (DEAD/H-box helicase 11),-0.31,-0.04,-0.55,-0.34
LOC389803 (retired record),-0.33,-0.38,-0.64,0.04
COLGALT2 (collagen beta(1-O)galactosyltransferase 2),0.93,0.99,0.76,1.03
XPNPEP1 (X-prolyl aminopeptidase 1),-1.54,-0.93,-1.75,-1.96
KRT74 (keratin 74),-0.22,0.04,-0.22,-0.47
NT5DC1 (5'-nucleotidase domain containing 1),-0.79,-0.72,-0.68,-0.98
POLR3D (RNA polymerase III subunit D),0.35,0.23,0.3,0.51
CAP2 (cyclase associated actin cytoskeleton regulatory protein 2),0.39,0.51,0.45,0.23
FOLR1 (folate receptor alpha),0.11,-0.05,0.3,0.08
CPLANE2 (ciliogenesis and planar polarity effector complex subunit 2),0.01,-0.23,0.4,-0.16
LOC389321 (retired record),0.13,-0.06,0.52,-0.07
MAP4K4 (mitogen-activated protein kinase kinase kinase kinase 4),-1.08,-1.23,-1.24,-0.78
SPATA1 (spermatogenesis associated 1),0.19,0.48,0.16,-0.07
FRMD8P1 (FERM domain containing 8 pseudogene 1),0.95,1.02,0.69,1.13
YKT6 (YKT6 vesicular SNARE protein),1.38,1.62,1.35,1.17
PSMB10 (proteasome 20S subunit beta 10),-0.15,0.2,-0.17,-0.49
GUCD1 (guanylyl cyclase domain containing 1),-1,-1.1,-1.04,-0.87
MMP24 (matrix metallopeptidase 24),0,0.17,-0.01,-0.16
PTPN4 (protein tyrosine phosphatase non-receptor type 4),0.19,0.26,0.1,0.22
USP36 (ubiquitin specific peptidase 36),-1.78,-1.56,-1.84,-1.95
SLC38A5,-1.34,-0.95,-2.12,-0.94
NR5A1 (nuclear receptor subfamily 5 group A member 1),1.42,1.64,1.42,1.19
OR52A5 (olfactory receptor family 52 subfamily A member 5),-0.26,-0.26,-0.29,-0.22
COPS8-DT (COPS8 divergent transcript),-1.46,-1.22,-1.54,-1.62
GCSAM (germinal center associated signaling and motility),0.07,0.17,0.15,-0.12
MACF1 (microtubule actin crosslinking factor 1),2.98 (active),2.44,2.86,3.64
KCNA6 (potassium voltage-gated channel subfamily A member 6),1.63,1.47,1.48,1.93
DNAJC13 (DnaJ heat shock protein family (Hsp40) member C13),1.07,0.93,0.63,1.64
LRRC14B (leucine rich repeat containing 14B),0.66,0.66,0.29,1.03
PRXL2C (peroxiredoxin like 2C),0.97,0.77,1.2,0.96
SULT4A1 (sulfotransferase family 4A member 1),0.92,0.57,0.94,1.26
WASHC2C (WASH complex subunit 2C),-1.99,-1.78,-2.32,-1.86
CEP192 (centrosomal protein 192),-0.35,0.03,-0.57,-0.5
VHLL (VHL like),1.1,1.16,1.28,0.84
SAXO1 (stabilizer of axonemal microtubules 1),2.65 (active),2.92,2.65,2.39
PDIA4 (protein disulfide isomerase family A member 4),-0.1,-0.4,0.18,-0.07
XPR1 (xenotropic and polytropic retrovirus receptor 1),0.52,0.97,0.32,0.28
CIMAP3 (ciliary microtubule associated protein 3),-0.29,-0.21,-0.17,-0.49
UGT1A4 (UDP glucuronosyltransferase family 1 member A4),1.09,0.88,1.29,1.11
FAIM (Fas apoptotic inhibitory molecule),0.3,0.26,0.26,0.37
"SETD2 (SET domain containing 2, histone lysine methyltransferase)",0.26,0.1,0.3,0.37
AHCY (adenosylhomocysteinase),-1.77,-1.53,-1.54,-2.24
ZNF311 (zinc finger protein 311),1.36,,1.35,1.37
HDC (histidine decarboxylase),-1.09,-1.25,-1.04,-0.99
EPPIN (epididymal peptidase inhibitor),-0.8,-0.99,-0.87,-0.54
MAPK1IP1L,2.72 (active),2.89,2.61,2.66
"TBC1D29P (TBC1 domain family member 29, pseudogene)",-0.09,-0.24,0.11,-0.15
RHOQ (ras homolog family member Q),1.11,0.84,1.29,1.2
ANAPC16 (anaphase promoting complex subunit 16),0.72,0.58,0.79,0.79
CXCL17 (C-X-C motif chemokine ligand 17),-0.88,-1.45,-0.56,-0.62
USP46 (ubiquitin specific peptidase 46),-0.46,-0.3,-0.51,-0.57

A portion taken from the entries so far:
gene symbol,mean z-score,"z-score, replicate A","z-score, replicate B","z-score, replicate C"
GCSAM (germinal center associated signaling and motility),0.07,0.17,0.15,-0.12
MACF1 (microtubule actin crosslinking factor 1),2.98 (active),2.44,2.86,3.64
KCNA6 (potassium voltage-gated channel subfamily A member 6),1.63,1.47,1.48,1.93
DNAJC13 (DnaJ heat shock protein family (Hsp40) member C13),1.07,0.93,0.63,1.64
LRRC14B (leucine rich repeat containing 14B),0.66,0.66,0.29,1.03
PRXL2C (peroxiredoxin like 2C),0.97,0.77,1.2,0.96
SULT4A1 (sulfotransferase family 4A member 1),0.92,0.57,0.94,1.26
WASHC2C (WASH complex subunit 2C),-1.99,-1.78,-2.32,-1.86
CEP192 (centrosomal protein 192),-0.35,0.03,-0.57,-0.5
VHLL (VHL like),1.1,1.16,1.28,0.84
